Molecular target: ClpC1 ATPase (Mycobacterium tuberculosis, UniProt P9WPC9)
Type: biochemical

Protein sequences, listed by entry. Tags and fused reporters are not part of them.
UniProt P9WPC9, whole entry: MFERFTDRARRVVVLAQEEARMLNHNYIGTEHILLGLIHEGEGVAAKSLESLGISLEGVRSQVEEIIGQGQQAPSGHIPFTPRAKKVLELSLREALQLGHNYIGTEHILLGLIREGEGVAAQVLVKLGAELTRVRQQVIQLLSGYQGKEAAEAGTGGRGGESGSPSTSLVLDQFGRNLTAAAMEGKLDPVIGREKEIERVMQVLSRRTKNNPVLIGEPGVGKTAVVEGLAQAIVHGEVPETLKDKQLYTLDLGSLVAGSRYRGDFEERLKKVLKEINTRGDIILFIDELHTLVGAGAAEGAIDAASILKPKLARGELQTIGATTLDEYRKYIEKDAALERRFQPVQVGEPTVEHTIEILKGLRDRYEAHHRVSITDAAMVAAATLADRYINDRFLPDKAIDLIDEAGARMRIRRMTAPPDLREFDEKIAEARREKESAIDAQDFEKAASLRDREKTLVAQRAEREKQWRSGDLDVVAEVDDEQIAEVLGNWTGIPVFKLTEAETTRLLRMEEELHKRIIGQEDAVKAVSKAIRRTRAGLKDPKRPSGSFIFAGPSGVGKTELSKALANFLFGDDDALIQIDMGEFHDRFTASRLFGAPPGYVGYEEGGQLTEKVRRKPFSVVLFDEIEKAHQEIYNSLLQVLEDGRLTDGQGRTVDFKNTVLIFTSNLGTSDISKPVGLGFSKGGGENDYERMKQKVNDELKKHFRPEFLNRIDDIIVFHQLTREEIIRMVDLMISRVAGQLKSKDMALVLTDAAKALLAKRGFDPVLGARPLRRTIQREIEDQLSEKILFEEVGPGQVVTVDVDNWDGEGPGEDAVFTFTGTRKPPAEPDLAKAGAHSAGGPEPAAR

## casein
  stimulation of ClpC1 ATPase activity: 2 fold

From patent US9925251B2, “Treatments for Mycobacterium tuberculosis” (priority 2011, dated 2018)
